Test results taken from ChEMBL document CHEMBL1136822, “Synthesis, antiviral activity and pharmacokinetics of P1/P1' substituted 3-aminoindazole cyclic urea HIV protease inhibitors” (Bioorg Med Chem Lett, 2003).

Molecular target: Human immunodeficiency virus type 1 protease (Human immunodeficiency virus 1, UniProt Q72874)
Experiment: Binding affinity against HIV-Protease was determined

**Q.** Which Ki does the source give for Nc1n[nH]c2ccc(CN3C(=O)N(Cc4ccccc4)[C@H](Cc4ccccc4)[C@H](O)[C@@H](O)[C@H]3Cc3ccccc3)cc12 here?
**A.** 0.031 nM
